Results published in article PMC3662766.

The chains behind the UniProt entries cited, without tags or fusion partners.
UniProt Q9HC16, whole entry E259Q: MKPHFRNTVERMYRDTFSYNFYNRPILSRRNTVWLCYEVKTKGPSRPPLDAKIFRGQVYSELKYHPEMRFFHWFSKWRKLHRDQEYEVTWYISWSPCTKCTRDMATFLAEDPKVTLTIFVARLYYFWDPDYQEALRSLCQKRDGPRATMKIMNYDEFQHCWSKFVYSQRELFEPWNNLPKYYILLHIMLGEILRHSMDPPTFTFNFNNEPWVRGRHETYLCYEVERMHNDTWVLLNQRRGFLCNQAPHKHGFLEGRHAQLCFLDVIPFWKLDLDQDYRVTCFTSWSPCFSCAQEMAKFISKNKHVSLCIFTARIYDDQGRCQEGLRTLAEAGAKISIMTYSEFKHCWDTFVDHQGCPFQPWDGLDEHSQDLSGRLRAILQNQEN

What was measured:
[1] = target: T1, HIV-1 reverse transcriptase p66/p51 (HIV-1) (UniProt P04585+P04585); experiment: fluorescence anisotropy; settings: RT buffer: 50 mM Tris pH 7.5 (printed '50 M'), 40 mM KCl, 10 mM MgCl2, 1 mM DTT, 50 nM p/t, 21 C, protein 0-5 uM
[2] = target: APOBEC3G (A3G) (UniProt Q9HC16); experiment: fluorescence anisotropy; settings: RT buffer: 50 mM Tris pH 7.5 (printed '50 M'), 40 mM KCl, 10 mM MgCl2, 1 mM DTT, 50 nM p/t, 21 C, protein 0-5 uM
[3] = target: APOBEC3G E259Q E259Q (UniProt Q9HC16); experiment: fluorescence anisotropy; settings: RT buffer: 50 mM Tris pH 7.5 (printed '50 M'), 40 mM KCl, 10 mM MgCl2, 1 mM DTT, 50 nM p/t, 21 C, protein 0-5 uM
[4] = target: T1, HIV-1 reverse transcriptase p66/p51 (HIV-1); experiment: fluorescence anisotropy, competition; settings: primer chimera: nt 1-18 RNA, nt 19-24 DNA; RT buffer: 50 mM Tris pH 7.5 (printed '50 M'), 40 mM KCl, 10 mM MgCl2, 1 mM DTT; 50 nM p/t; 21 C; protein 0-5 uM
[5] = primer chimera: nt 1-18 RNA, nt 19-24 DNA

Row | Sequence | Kd [1] [nM] | Kd [2] [nM] | Kd [3] [nM] | Kd [4] [nM] | Kd [1, 5] [nM] | Kd [2, 5] [nM] | Kd [3, 5] [nM]
1 | UGUUAGGACUCUGGUAACUAGAGAUCCCUCAGAUCACUCUAGACUGAGUAAAAAUCUCUAGCAGUGGCGCCCGAACAGGGACUUGAAAGCGAAAGUUAAUAGGGAC / GUCCCUGUUCGGGCGCCA [PBS p/t (18 nt RNA primer on 106 nt PBS RNA)] | 2520 | 778 | 1100 | – | – | – | –
2 | UGUUAGGACUCUGGUAACUAGAGAUCCCUCAGAUCACUCUAGACUGAGUAAAAAUCUCUAGCAGUGGCGCCCGAACAGGGACUUGAAAGCGAAAGUUAAUAGGGAC / GUCCCUGUUCGGGCGCCACTGCTA [PBS+6 p/t (24 nt RNA/DNA primer on 106 nt PBS RNA)] | – | – | – | 981 | 581 | 354 | 685
